The values below come from PMC6051671, “A genome-wide screen of Epstein-Barr virus proteins that modulate host SUMOylation identifies a SUMO E3 ligase conserved in herpesviruses” (PLoS Pathogens, 2018).

This experiment has as its target T1, His6-SM-3FLAG (pET15b-SM-3FLAG) (Epstein-Barr virus).
T1 construct: also called recombinant SM; EB2; source: E. coli BL21-pLysS, partially purified (Ni-NTA)
Put plainly: pull-down. The settings on record: both partners purified.

B1: GST-SUMO1 (pGEX2T-SUMO1) (natural protein)
chain: not shown
notes: also called GST-tagged SUMO1; source: E. coli DH5alpha; in bacterial lysate (assay with BRLF1)
Regarding B1, the binding result is recorded as “binds”.
